# According to paper PMC9089915, “The SUMO E3 ligase activity of ORF45 determines KSHV lytic replication” (PLoS Pathogens, 2022):
# B1: GST-SUMO1 (natural protein)
# chain: not shown
# notes: source: purified by Glutathione Sepharose 4B
# B2: GST-SUMO2 (natural protein)
# chain: not shown
# notes: as for B1
# B3: GST-SUMO2^G92A/G93A (natural protein)
# chain: not shown
# notes: also called SUMO2^G/A; SUMO G/A mutant; source: purified by Glutathione Sepharose 4B
# Biological target: T1, purified His-tagged KSHV ORF45 protein (KSHV)
# T1 construct: also called recombinant ORF45; recombinant KSHV ORF45; source: recombinant, purified
# Assay: pull-down; GST only, GST-SUMO1, GST-SUMO2 (or SUMO G/A mutants) on glutathione-Sepharose beads mixed with 0.5 μg purified His-tagged ORF45 in vitro for 30 min; Coomassie staining and IB with anti-ORF45
# Conditions: both partners purified
row,Binder,binding result
1,B1,binds
2,B2,binds
3,B3,binds
